Results of unrelated studies side by side (data: NIAID ChemDB).

Shared fields: whole-cell or culture tests; organism: Aspergillus fumigatus; method: agar diffusion; measure: zone

Lines come from different laboratories, so protocols vary.

smiles | strain | tested at | value
O=C(CN1CCN(c2ccccc2O)CC1)N1c2ccccc2Sc2ccccc21 | - | 0.1 µg/mL | 10 mm
Cc1c(N2C(=O)CSC23C(=O)N(CCCCCCBr)c2ccccc23)c(=O)n(-c2ccccc2)n1C | MTCC 343 | 100 µg/mL | 0 mm
COc1ccc(C2C(C#N)=C(N)N=C3Sc4cc(C)ccc4N32)cc1OC | - | 5000 µg/mL | 9 mm
Cc1nn(-c2ccccc2)c2c1C1(C(=O)N(CCCCCCN3C(=O)C4(SCC(=O)N4c4c(C)n(C)n(-c5ccccc5)c4=O)c4cc(F)ccc43)c3ccc(F)cc31)c1c(C)nn(-c3ccccc3)c1O2 | MTCC 343 | 100 µg/mL | 15 mm
C[C@@H]1[C@@H](COCC(=O)O)C[C@@H](O[C@H]2[C@H](O)[C@@H](N(Cc3cccc(Cl)c3)CC(O)C[N+](C)(C)C)[C@H](O[C@H]3[C@H](O)[C@@H](N(Cc4cccc(Cl)c4)CC(O)C[N+](C)(C)C)[C@H](C)O[C@@H]3COCC(=O)O)O[C@@H]2COCC(=O)O)[C@H](N(Cc2cccc(Cl)c2)CC(O)C[N+](C)(C)C)[C@H]1O | RCMB 02568 | 1 mg/mL | 18.2 mm
C[C@@H]1[C@H](O)[C@@H](C)/C=C/C=C/C=C/C=C/C=C/C=C/C=C/[C@H](O[C@@H]2O[C@H](C)[C@@H](O)[C@H](N)[C@@H]2O)C[C@@H]2O[C@](O)(C[C@@H](O)C[C@@H](O)[C@H](O)CC[C@@H](O)C[C@@H](O)CC(=O)O[C@H]1C)C[C@H](O)[C@H]2C(=O)O | - | 10 µg | 17.58 mm
Nc1ccccc1C(=O)Nc1ccc(F)cc1 | RCMB 02003 | 25 µg/mL | 11.9 mm
Cc1nn(-c2ccccc2)c2c1C1(C(=O)N(CCCCCCN3C(=O)C4(SCC(=O)N4c4c(C)n(C)n(-c5ccccc5)c4=O)c4ccccc43)c3ccc(F)cc31)c1c(C)nn(-c3ccccc3)c1O2 | MTCC 343 | 100 µg/mL | 14 mm
Clc1ccc(COC(Cn2ccnc2)c2ccc(Cl)cc2Cl)c(Cl)c1 | - | 100 µg/mL | 15 mm
C[C@H]1[C@H](O)[C@@H](C)/C=C/C=C/C=C/C=C/C=C/C=C/C=C/[C@H](O[C@@H]2O[C@H](C)[C@@H](O)[C@H](N)[C@@H]2O)C[C@@H]2O[C@](O)(C[C@@H](O)C[C@@H](O)CC[C@H](O)[C@@H](O)C[C@@H](O)CC(=O)O[C@H]1C)C[C@H](O)[C@H]2C(=O)O | - | 0.5 mg/disc | 0 mm
Clc1ccc(COC(Cn2ccnc2)c2ccc(Cl)cc2Cl)c(Cl)c1 | ATCC 16404 | 500 µg/mL | 20.9 mm
C[C@@H]1[C@@H](COCC(=O)O)C[C@@H](O[C@H]2[C@H](O)[C@@H](N(Cc3cccc(Br)c3)CC(O)C[N+](C)(C)C)[C@H](O[C@H]3[C@H](O)[C@@H](N(Cc4cccc(Br)c4)CC(O)C[N+](C)(C)C)[C@H](C)O[C@@H]3COCC(=O)O)O[C@@H]2COCC(=O)O)[C@H](N(Cc2cccc(Br)c2)CC(O)C[N+](C)(C)C)[C@H]1O | RCMB 02568 | 1 mg/mL | 22.7 mm
CC1=Cc2c(CO)c(O)c(C)c(O)c2CO1 | IFM 41362 | 100 µM | 12 mm
Nc1ccccc1C(=O)Nc1ccc(Cl)cc1 | RCMB 02003 | 25 µg/mL | 9.4 mm
C[C@H]1[C@H](O)[C@@H](C)/C=C/C=C/C=C/C=C/C=C/C=C/C=C/[C@H](O[C@@H]2O[C@H](C)[C@@H](O)[C@H](N)[C@@H]2O)C[C@@H]2O[C@](O)(C[C@@H](O)C[C@@H](O)CC[C@H](O)[C@@H](O)C[C@@H](O)CC(=O)O[C@H]1C)C[C@H](O)[C@H]2C(=O)O | RCMB 02568 | 1 mg/mL | 23.7 mm
Cc1ccc(N=c2cc(N)nc3sc(S(N)(=O)=O)nn23)cc1 | - | 5000 µg/mL | 5 mm
Cc1ccccc1N1CCN(CC(=O)N2c3ccccc3Sc3ccccc32)CC1 | - | 0.1 µg/mL | 12 mm
Cc1ccc2c(c1)C1(SCC(=O)N1c1c(C)n(C)n(-c3ccccc3)c1=O)C(=O)N2CCCCCCBr | MTCC 343 | 100 µg/mL | 0 mm

The first 2 rows once more:

| smiles | strain | tested at | value |
|---|---|---|---|
| O=C(CN1CCN(c2ccccc2O)CC1)N1c2ccccc2Sc2ccccc21 | - | 0.1 µg/mL | 10 mm |
| Cc1c(N2C(=O)CSC23C(=O)N(CCCCCCBr)c2ccccc23)c(=O)n(-c2ccccc2)n1C | MTCC 343 | 100 µg/mL | 0 mm |

Blank or dashed fields: not listed here. Zones are inhibition diameters on agar.